Laboratory results reported in patent EP4361172A2.

B1: recombinant µ-conotoxin TIIIA (peptide)
peptide: RHGCCKGPKGCSSRECRPQHCC
modifications: not checked

Legend:
[1] = target: human NaV1.4 sodium channel (human) (UniProt P35499); test: cell-based or functional assay
[2] = target: human NaV1.4 sodium channel (human), P35499; test: cell-based or functional assay

Molecule	IC50, inhibition of sodium ion current (patch-clamp, Xenopus oocytes) [1]	IC99, inhibition of sodium ion current (patch-clamp, Xenopus oocytes) [1]	IC50, inhibition of sodium ion current (patch-clamp, Xenopus oocytes) [2]	IC99, inhibition of sodium ion current (patch-clamp, Xenopus oocytes) [2]
CnIIIC standard (commercially available synthetic µ-conotoxin CnIIIC) (from UniProt I1SB07 1-22) (peptide)	0.0336 µM	3.3 µM		
B1			9.7 µM	0.97 mM
